Anti-infective test results gathered from many reports (values: NIAID ChemDB through PubChem).

All rows: tests in culture; organism: Aspergillus niger

Zone: diameter of growth inhibition.

| compound | conditions | tested at | read by | strain or isolate | read-out | result |
|---|---|---|---|---|---|---|
| C=C1C(=O)O[C@H]2[C@H]1[C@@H](O)C[C@]1(C)[C@@H]2[C@@H](CO)CC[C@H]1O | - | - | - | ATCC 6275 | MFC | 0.5 µg/mL |
| Cc1nc(NC(=O)c2ccc(F)cc2)sc1C(=O)N/N=C1/S/C(=C/c2ccc(Cl)cc2)C(=O)N1c1ccccc1 | - | - | - | MTCC 282 | MIC50 | 1000 µg/mL |
| C=C1C(=O)O[C@@H]2/C=C(\CO)CCC=C(C)C[C@H](OC(=O)/C(=C/COC(C)=O)CO)[C@@H]12 | - | - | - | ATCC 6275 | MFC | 0.125 µg/mL |
| Brc1ccc(CO/N=C2/c3ccccc3OCC2n2cncn2)cc1 | - | - | - | ATCC 16401 | MFC | 16 µg/mL |
| COc1ccccc1/C=C1/S/C(=N/NC(=O)c2sc(NC(=O)c3ccc(F)cc3)nc2C)N(c2ccccc2)C1=O | - | - | - | MTCC 282 | MIC50 | 50 µg/mL |
| Fc1ccccc1CO/N=C1\c2ccccc2OCC1n1cncn1 | - | - | - | ATCC 16401 | MFC | 32 µg/mL |
| COC1OC(C)Cc2oc3cc(O)c(O)c(C(=O)O)c3c(=O)c21 | - | 200 µg/mL | absorbance | - | inhibition | 0% |
| c1ccc(CO/N=C2\c3ccccc3OCC2n2cnnc2)cc1 | - | - | - | ATCC 16401 | MFC | >64 µg/mL |
| Cc1ccc2nc(Cl)c(C3SC(=Cc4ccc([N+](=O)[O-])cc4)C(=O)N3n3c(-c4ccc(Cl)cc4)nc4ccccc4c3=O)cc2c1 | - | - | broth dilution / visual reading | - | MIC99 | 1000 µg/mL |
| O/N=C(/COc1ccc(F)cc1)c1ccccc1 | 72 h | - | broth dilution | ATCC 16404 | MIC | >125 µg/mL |
| Cc1ccc(/C=C2/SC(=O)N(CC(=O)Nc3nc4ccc(SC#N)cc4s3)C2=O)cc1 | - | - | broth dilution / visual reading | MTCC 282 | MIC | 500 µg/mL |
| C/C(=N\NC(=S)Nc1cccc(Cl)c1)c1c(O)ccc2c(C)cc(=O)oc12 | - | 100 µg/mL | agar diffusion / agar | - | inhibition | 87.21% |
| CC(=O)/C=C(\O)c1coc2cc(O)c(O)c(C(=O)O)c2c1=O | - | 200 µg/mL | absorbance | - | inhibition | 0% |
| COc1cc(OC/C(=N/O)c2ccccc2)cc(OC)c1OC | 48 h | - | broth dilution | ATCC 16404 | MIC | >125 µg/mL |
| Cc1nc(NC(=O)c2ccc(F)cc2)sc1C(=O)N/N=C1/S/C(=C/c2ccccc2)C(=O)N1c1ccccc1 | - | - | - | MTCC 282 | MIC50 | 250 µg/mL |
| N#CSc1ccc2nc(NC(=O)CN3C(=O)S/C(=C/c4ccc(F)cc4)C3=O)sc2c1 | - | - | broth dilution / visual reading | MTCC 282 | MIC | 1000 µg/mL |
| CS(=O)(=O)c1nc(N)c(C#N)c(/C=C\c2ccccc2)n1 | - | 50 µg/mL | agar diffusion | MTCC 282 | zone | 19 mm |
| COc1ccccc1OCC(=O)c1ccccc1 | 48 h | - | broth dilution | ATCC 16404 | MIC | >125 µg/mL |
| N#CSc1ccc2nc(NC(=O)CN3C(=O)S/C(=C/c4ccc(O)cc4)C3=O)sc2c1 | - | - | broth dilution / visual reading | MTCC 282 | MIC | 1000 µg/mL |
| CCCCCOc1ccc(-c2ccc(-c3ccc(C(=O)N[C@H]4C[C@@H](O)[C@@H](O)NC(=O)[C@@H]5[C@@H](O)[C@@H](C)CN5C(=O)[C@H]([C@H](C)O)NC(=O)[C@H]([C@H](O)[C@@H](O)c5ccc(O)cc5)NC(=O)[C@@H]5C[C@@H](O)CN5C(=O)[C@H]([C@H](C)O)NC4=O)cc3)cc2)cc1 | - | - | broth dilution | - | MEC | <0.06 µg/mL |
| Clc1ccc(CO/N=C2/c3ccc(Cl)cc3OCC2n2cnnc2)c(Cl)c1 | - | - | - | ATCC 16401 | MFC | >64 µg/mL |
| CCC(C)CC(C)CCCCCCCCC(=O)N[C@H]1C[C@@H](O)[C@H](NCCN)NC(=O)[C@@H]2[C@@H](O)CCN2C(=O)[C@H]([C@H](O)CCN)NC(=O)[C@H]([C@H](O)[C@@H](O)c2ccc(O)cc2)NC(=O)[C@@H]2C[C@@H](O)CN2C(=O)[C@H]([C@@H](C)O)NC1=O | - | - | broth dilution | - | MEC | 0.03 µg/mL |
| NN(Cc1ccccc1)CC(O)(Cn1cncn1)c1ccc(F)cc1F | - | - | - | ATCC 9042 | MIC80 | 4 µg/mL |
| CSC1=NC(c2cccc3cc4ccccc4cc23)C(C#N)=C(N)N1 | - | 100 µg/mL | agar diffusion | MTCC 282 | zone | 16 mm |
| N#CSc1ccc2nc(NC(=O)CCl)sc2c1 | - | - | broth dilution / visual reading | MTCC 282 | MIC | 500 µg/mL |
| COc1ccccc1OC/C(=N/O)c1ccccc1 | 72 h | - | broth dilution | ATCC 16404 | MIC | >125 µg/mL |
| N#CSc1ccc2nc(NC(=O)CN3C(=O)S/C(=C/c4ccc(Cl)cc4)C3=O)sc2c1 | - | - | broth dilution / visual reading | MTCC 282 | MIC | 1000 µg/mL |
| C=C[C@]1(C)C[C@H](OC(=O)C(=C)C(O)COC(C)=O)[C@H]2C(=C)C(=O)O[C@@H]2[C@H]1C(=C)CO | - | - | - | ATCC 6275 | MFC | 0.5 µg/mL |
| CC(=Nc1cccc2cccc(N=C(C)c3c(O)ccc4c(C)cc(=O)oc34)c12)c1c(O)ccc2c(C)cc(=O)oc12 | - | 200 µg/mL | - | MTCC 1881 | zone | 11 mm |
| N=C(N)c1ccc(OCCCCCCOc2ccc(C(=N)N)cc2)cc1 | - | - | agar diffusion / agar | As2 | MIC | 33 µg/mL |
| CS(=O)(=O)c1nc(N)c(C#N)c(-c2cccc([N+](=O)[O-])c2)n1 | - | 25 µg/mL | agar diffusion | MTCC 282 | zone | 18 mm |
| O=C(Nc1nc2ccccc2[nH]1)c1cn[nH]c1C(=O)c1ccccc1 | - | - | broth dilution | - | MFC | 10 µg/mL |
| c1ccc(CO/N=C2/c3ccccc3OCC2n2cncn2)cc1 | - | - | - | ATCC 16401 | MFC | >64 µg/mL |
| Cc1nc(NC(=O)c2ccc(F)cc2)sc1C(=O)N/N=C1/S/C(=C/c2ccc(O)cc2)C(=O)N1c1ccccc1 | - | - | - | MTCC 282 | MIC50 | 250 µg/mL |
| Cc1ccc2nc(Cl)c(C3SC(=Cc4cccc(Cl)c4)C(=O)N3n3c(-c4ccc(Cl)cc4)nc4ccccc4c3=O)cc2c1 | - | - | broth dilution / visual reading | - | MIC99 | 1000 µg/mL |
| Cc1ccc(/C=C2/S/C(=N/NC(=O)c3sc(NC(=O)c4ccc(F)cc4)nc3C)N(c3ccccc3)C2=O)cc1 | - | - | - | MTCC 282 | MIC50 | 100 µg/mL |
| N#CSc1ccc2nc(NC(=O)CN3C(=O)S/C(=C/c4ccccc4Cl)C3=O)sc2c1 | - | - | broth dilution / visual reading | MTCC 282 | MIC | 500 µg/mL |
| Cc1ccc(C=C2SC(c3cc4cc(C)ccc4nc3Cl)N(n3c(-c4ccc(Cl)cc4)nc4ccccc4c3=O)C2=O)cc1 | - | - | broth dilution / visual reading | - | MIC99 | 1000 µg/mL |
| CSC1=NC(c2ccccc2O)C(C#N)=C(N)N1 | - | 50 µg/mL | agar diffusion | MTCC 282 | zone | 15 mm |
| C[C@H]1[C@H](O)[C@@H](C)/C=C/C=C/C=C/C=C/C=C/C=C/C=C/[C@H](O[C@@H]2O[C@H](C)[C@@H](O)[C@H](N)[C@@H]2O)C[C@@H]2O[C@](O)(C[C@@H](O)C[C@@H](O)CC[C@H](O)[C@@H](O)C[C@@H](O)CC(=O)O[C@H]1C)C[C@H](O)[C@H]2C(=O)O | - | - | broth dilution / resazurin | - | MIC | 0.98 µg/mL |
| Cc1ccc2nc(Cl)c(C3SC(=Cc4ccc(Cl)cc4)C(=O)N3n3c(-c4ccc(Cl)cc4)nc4ccccc4c3=O)cc2c1 | - | - | broth dilution / visual reading | - | MIC99 | 100 µg/mL |
| COc1ccc(-c2nc(S(C)(=O)=O)nc(N)c2C#N)cc1 | - | 100 µg/mL | agar diffusion | MTCC 282 | zone | 21 mm |
| Fc1cccc(CO/N=C2/c3ccccc3OCC2n2cncn2)c1 | - | - | - | ATCC 16401 | MFC | 32 µg/mL |

A second listing of 4 rows from above:

{"compound": "O=C(Nc1nc2ccccc2[nH]1)c1cn[nH]c1C(=O)c1ccccc1", "read by": "broth dilution", "read-out": "MFC", "result": "10 µg/mL"}
{"compound": "Cc1ccc(C=C2SC(c3cc4cc(C)ccc4nc3Cl)N(n3c(-c4ccc(Cl)cc4)nc4ccccc4c3=O)C2=O)cc1", "read by": "broth dilution / visual reading", "read-out": "MIC99", "result": "1000 µg/mL"}
{"compound": "N#CSc1ccc2nc(NC(=O)CN3C(=O)S/C(=C/c4ccc(Cl)cc4)C3=O)sc2c1", "read by": "broth dilution / visual reading", "strain or isolate": "MTCC 282", "read-out": "MIC", "result": "1000 µg/mL"}
{"compound": "N#CSc1ccc2nc(NC(=O)CCl)sc2c1", "read by": "broth dilution / visual reading", "strain or isolate": "MTCC 282", "read-out": "MIC", "result": "500 µg/mL"}

Lines come from different laboratories, so protocols vary. An empty or dashed field is not shown. Percent inhibition refers to the dose given; in toxicity tests it is the harm to the cells. MIC50, MIC90 and the like: level of inhibition, or share of isolates inhibited.